According to PMC8035206:

Target: N-mEGFP full length (nucleocapsid) (SARS-CoV-2) (UniProt P0DTC9)
Experiment: EMSA
Details: 1 uM protein, 200 nM RNA; recombinant protein; residues 1-419

Does “AUUAAAGGUUUAUACCUUCCCAGGUAACAAACCAACCAACUUUCGAUCUCUUGUA [55-nt vRNA (5' UTR segment)]” bind?
Result: binds

Construct, isoform or probe ends are uncertain for at least one entry. At least one verdict rests on a figure or table, not on a statement of the authors.
